Measured values from several laboratories, pooled; numbers as filed in NIAID ChemDB.

Shared fields: growth or infection tests

Conditions beyond the fields shown may differ between rows. Zones are inhibition diameters on agar. Blank or dashed fields: not listed here. ECn is the concentration giving n% inhibition of infection, replication or growth. Two numbers with a dash give a range or band. Inhibition is in % at the dose shown (toxicity tests: loss of growth or viability). A number after MIC or MFC names an inhibition level or a share of isolates.

compound,strain,conditions,method,agent,dose,read-out,result
O=C(CCn1ccnc1)c1cccc(C(O)c2ccc(Cl)c(Cl)c2)c1,RTCC 1019,,broth dilution,Candida kefyr,,MIC,1 µg/mL
CCC(C)n1ncn(-c2ccc(N3CCN(c4ccc(OC[C@H]5CO[C@](Cn6cncn6)(c6ccc(Cl)cc6Cl)O5)cc4)CC3)cc2)c1=O,,,agar diffusion,Candida utilis,100 µg,zone,15 mm
COC(=O)[C@H]1[C@@H]2C[C@@H](O[C@@H]3O[C@H](C)[C@@H](O)[C@H](N)[C@@H]3O)/C=C/C=C/C=C/C=C/C=C/C=C/C=C/[C@H](C)[C@@H](O)[C@H](C)[C@H](C)OC(=O)C[C@H](O)C[C@H](O)[C@@H](O)CC[C@H](O)C[C@H](O)C[C@](O)(C[C@@H]1O)O2,40 isolates,pH 4,broth dilution,Candida glabrata,,EC90,4 µg/mL
CCCCCn1cc[n+](COCCCCCCOC[n+]2ccn(CCCCC)c2)c1,ATCC 6258,,agar diffusion,Candida krusei,,MIC100,631 µM
Nc1scc2c1c(=O)oc1ccccc12,,,broth dilution,Candida guilliermondii,,MIC,64 µg/mL
CC(=O)CC(C)n1c2c(=O)c3ccccc3c(=O)c=2oc2ccc(Cl)cc21,VKM Y-70,,,Candida tenuis,,MIC,125 µg/mL
O=C(OC(Cn1ccnc1)c1ccc(F)cc1)c1cccc(C(F)(F)F)c1,,,broth dilution,Candida spp.,,MIC,43.8 µg/mL
CCCCN(Cc1cn(Cc2ccc(F)cc2)nn1)CC(O)(Cn1cncn1)c1ccc(F)cc1F,,,,Candida kefyr,,MIC80,0.625 µg/mL
C[C@@H](c1ncncc1F)[C@](O)(Cn1cncn1)c1ccc(F)cc1F,,,broth dilution,Candida glabrata,,MIC90,1 µg/mL
C[C@H]1[C@H](O)[C@@H](C)/C=C/C=C/C=C/C=C/C=C/C=C/C=C/[C@H](O[C@@H]2O[C@H](C)[C@@H](O)[C@H](N)[C@@H]2O)C[C@@H]2O[C@](O)(C[C@@H](O)C[C@@H](O)CC[C@H](O)[C@@H](O)C[C@@H](O)CC(=O)O[C@H]1C)C[C@H](O)[C@H]2C(=O)O,NCIM 3467,,,Candida rugosa,50 µg/mL,zone,21 mm
C[C@H]1[C@H](O)[C@@H](C)/C=C/C=C/C=C/C=C/C=C/C=C/C=C/[C@H](O[C@@H]2O[C@H](C)[C@@H](O)[C@H](N)[C@@H]2O)C[C@@H]2O[C@](O)(C[C@@H](O)C[C@@H](O)CC[C@H](O)[C@@H](O)C[C@@H](O)CC(=O)O[C@H]1C)C[C@H](O)[C@H]2C(=O)O,34134,,broth dilution,Candida guilliermondii,,MIC,0.008 µg/mL
Cc1cc(=O)oc2cc(OCC(O)Cn3nnc4ccccc43)cc(OCC(O)Cn3nnc4ccccc43)c12,,,,Candida mycoderma,,MIC,16 µg/mL
CCC(C)n1ncn(-c2ccc(N3CCN(c4ccc(OC[C@H]5CO[C@](Cn6cncn6)(c6ccc(Cl)cc6Cl)O5)cc4)CC3)cc2)c1=O,40 isolates,pH 5,broth dilution,Candida glabrata,,EC90,>16 µg/mL
O=C(CCn1ccnc1)c1ccc(-c2ccccc2)cc1,RTCC 1377,,broth dilution,Candida guilliermondii,,MIC,4 µg/mL
CCCCCCCCCCCCCCCCn1cc[n+](COCCCOC[n+]2ccn(CCCCCCCCCCCCCCCC)c2)c1,ATCC 6258,,agar diffusion,Candida krusei,,MIC100,13 µM
COC(=O)C1CC(=O)N(c2cccc(OC3=C(Oc4cccc(N5CC(C(=O)OC)CC5=O)c4)C(=O)c4ccccc4C3=O)c2)C1,VCM Y-70,,,Candida tenuis,,MIC,31.2 µg/mL
CCCCCOc1ccc(-c2cc(-c3ccc(C(=O)N[C@H]4C[C@@H](O)[C@@H](O)NC(=O)[C@@H]5[C@@H](O)[C@@H](C)CN5C(=O)[C@H]([C@H](O)CC(N)=O)NC(=O)[C@H]([C@H](O)[C@@H](O)c5ccc(O)c(OS(=O)(=O)O)c5)NC(=O)[C@@H]5C[C@@H](O)CN5C(=O)[C@H]([C@@H](C)O)NC4=O)cc3)no2)cc1,,,,Candida guilliermondii,,MIC50,0.015–16 µg/mL
COc1cc2oc3cc(O)cc(O)c3c(=O)c2c2c1OC(C)(C)C=C2,,,broth dilution,Candida spp.,,MIC100,>64 µg/mL
C[C@H]1[C@H](O)[C@@H](C)/C=C/C=C/C=C/C=C/C=C/C=C/C=C/[C@H](O[C@@H]2O[C@H](C)[C@@H](O)[C@H](N)[C@@H]2O)C[C@@H]2O[C@](O)(C[C@@H](O)C[C@@H](O)CC[C@H](O)[C@@H](O)C[C@@H](O)CC(=O)O[C@H]1C)C[C@H](O)[C@H]2C(=O)O,Ca3,,agar diffusion,Candida colliculosa,100 µg/disc,zone,20 mm
C=CCc1ccc(OC)c(OC)c1,3220,,turbidity,Candida tropicalis,,MIC90,340 µg/mL
C[C@H]1[C@H](O)[C@@H](C)/C=C/C=C/C=C/C=C/C=C/C=C/C=C/[C@H](O[C@@H]2O[C@H](C)[C@@H](O)[C@H](N)[C@@H]2O)C[C@@H]2O[C@](O)(C[C@@H](O)C[C@@H](O)CC[C@H](O)[C@@H](O)C[C@@H](O)CC(=O)O[C@H]1C)C[C@H](O)[C@H]2C(=O)O,,,broth dilution,Candida guilliermondii,,MIC,6.25 µg/mL
CC(=O)CC(C)n1c2c(=O)c3ccccc3c(=O)c=2oc2ccccc21,VKM Y-70,,,Candida tenuis,,MIC,250 µg/mL
CC1(C)O[C@H]2[C@H](O)[C@@H](N=[N+]=[N-])C=C(c3ccc(C=O)cc3)[C@H]2O1,C 131,,broth dilution / turbidity,Candida tropicalis,31.25 µg/mL,inhibition,2.91%
CCCCCCCCCCCn1cc[n+](COCCCCCOC[n+]2ccn(CCCCCCCCCCC)c2)c1,ATCC 6258,,agar diffusion,Candida krusei,,MIC100,4 µM
CCOC(=O)/C=C(/C)n1c2c(=O)c3ccccc3c(=O)c=2oc2ccccc21,VKM Y-70,,,Candida tenuis,,MIC,62.5 µg/mL
O=c1c2cc(O)ccc2oc2cccc(O)c12,,,broth dilution,Candida spp.,,MIC,>64 µg/mL
O=C(NN=Cc1ccc(O)cc1)c1snnc1C(F)(F)F,NCIM 3462,,agar diffusion / agar,Candida rugosa,150 µg/mL,zone,0 mm
CCCCCOc1ccc(-c2cc(-c3ccc(C(=O)N[C@H]4C[C@@H](O)[C@@H](O)NC(=O)[C@@H]5[C@@H](O)[C@@H](C)CN5C(=O)[C@H]([C@H](O)CC(N)=O)NC(=O)[C@H]([C@H](O)[C@@H](O)c5ccc(O)c(OS(=O)(=O)O)c5)NC(=O)[C@@H]5C[C@@H](O)CN5C(=O)[C@H]([C@@H](C)O)NC4=O)cc3)no2)cc1,RC-401,,broth dilution,Candida guilliermondii,,EC50,0.5 µg/mL
COc1ccc(C2c3ccc4ccccc4c3Oc3nc(-c4cc5ccccc5oc4=O)[nH]c(=O)c32)cc1,,,agar diffusion / agar,Candida rugosa,100 µg/mL,zone,16 mm
OC(Cn1cncn1)(Cn1cncn1)c1ccc(F)cc1F,,,agar,Candida utilis,,MIC,25 µg/mL
CCOC(=O)/C=C(/C)n1c2c(=O)c3ccccc3c(=O)c=2oc2ccc(Cl)cc21,VKM Y-70,,,Candida tenuis,,MIC,125 µg/mL
COc1ccc(-c2cc(-c3ccc(F)cc3)nc(NC(=O)CN3CCOCC3)n2)cc1,Strains 7 and 7,,,Candida spp.,,MIC,50 µg/mL
c1ccc(C(c2ccccc2)n2ccnc2)cc1,,,agar,Candida dubliniensis,,MIC90,0.5 µg/mL
O=C(CCn1ccnc1)c1cccc(C(O)c2ccc(Br)cc2)c1,RTCC 1074,,broth dilution,Candida kefyr,,MIC,64 µg/mL
COc1ccc(C(c2ccc(OC)cc2)n2ccnc2)cc1,,,broth dilution,Candida krusei,,MFC,>256 µg/mL
O=c1[nH]c(-c2cc3ccccc3oc2=O)nc2c1C(c1ccccc1Cl)c1ccc3ccccc3c1O2,,,agar diffusion / agar,Candida rugosa,150 µg/mL,zone,15 mm
OC(CN1CCN(c2ccc(OCc3ccncc3)cc2)CC1)(Cn1cncn1)c1ccc(F)cc1F,FHB1,,,Candida albicans,,MIC80,1 µg/mL
O=C(NN=C1CCCCC1)c1snnc1C(F)(F)F,NCIM 3462,,agar diffusion / agar,Candida rugosa,150 µg/mL,zone,0 mm
COc1ccc(C2c3ccc4ccccc4c3Oc3nc(-c4cc5ccccc5oc4=O)[nH]c(=O)c32)cc1OC,,,agar diffusion / agar,Candida rugosa,100 µg/mL,zone,18 mm
CCCCN(Cc1cn(Cc2ccc(Cl)cc2)nn1)CC(O)(Cn1cncn1)c1ccc(F)cc1F,,,,Candida kefyr,,MIC80,0.0039 µg/mL
CCCCCCCCn1cc[n+](COCCCCOC[n+]2ccn(CCCCCCCC)c2)c1,ATCC 6258,,agar diffusion,Candida krusei,,MIC100,9 µM
CC(C)CC(=O)C(=O)O,T-98 QC2000,,broth dilution,Candida dubliniensis,,MFC100,>72000 µg/mL
COc1cc(C2Oc3ccc4c(=O)c5c(O)cc(O)cc5oc4c3OC2CO)cc(OC)c1O,,,broth dilution,Candida spp.,,MIC,>64 µg/mL
CC(C)CC(O)C(=O)O,EO 323,,broth dilution,Candida dubliniensis,,EC50,18000 µg/mL
O=C(c1ccccc1)C(c1ccccc1)n1cnc2ccccc21,,,agar,Candida glabrata,,MIC90,64 µg/mL
C[C@H]1[C@H](O)[C@@H](C)/C=C/C=C/C=C/C=C/C=C/C=C/C=C/[C@H](O[C@@H]2O[C@H](C)[C@@H](O)[C@H](N)[C@@H]2O)C[C@@H]2O[C@](O)(C[C@@H](O)C[C@@H](O)CC[C@H](O)[C@@H](O)C[C@@H](O)CC(=O)O[C@H]1C)C[C@H](O)[C@H]2C(=O)O,,,agar diffusion / agar,Candida rugosa,100 µg/mL,zone,22 mm
CCCCCCCCCCCCCCCC(=O)NC(CCCCN)C(=O)NC(CCCCN)C(N)=O,195,,broth dilution,Candida guilliermondii,,MIC,4 µg/mL
O=C1c2ccccc2CC1Cn1ccnc1,RTCC1248,,broth dilution,Candida guilliermondii,,MIC,>64 µg/mL
O=C1C(Cl)=C(Oc2cccc(N3CC(c4nnco4)CC3=O)c2)C(=O)c2ccccc21,VCM Y-70,,,Candida tenuis,,MIC,31.2 µg/mL
O=C(NN=C1CCCC1)c1snnc1C(F)(F)F,NCIM 3462,,agar diffusion / agar,Candida rugosa,150 µg/mL,zone,0 mm
CCCCCCCCCCn1cc[n+](COCCCCOC[n+]2ccn(CCCCCCCCCC)c2)c1,ATCC 6258,,agar diffusion,Candida krusei,,MIC100,8 µM
Cc1cc2ncn(CC(O)COc3cc(OCC(O)Cn4cnc5cc(C)c(C)cc54)c4c(C)cc(=O)oc4c3)c2cc1C,,,,Candida mycoderma,,MIC,32 µg/mL
OC(CCn1ccnc1)c1cccc(C(O)c2ccc(Br)cc2)c1,RTCC1248,,broth dilution,Candida guilliermondii,,MIC,64 µg/mL
CC[C@@H]([C@H](C)O)n1ncn(-c2ccc(N3CCN(c4ccc(OC[C@@H]5CO[C@@](Cn6cncn6)(c6ccc(F)cc6F)C5)cc4)CC3)cc2)c1=O,,,broth dilution,Candida glabrata,,MIC50,0.5 µg/mL
c1ccc(C(c2ccccc2)n2nnc3ccccc32)cc1,,,broth dilution,Candida krusei,,MFC,>256 µg/mL
CN[C@H]1CC[C@@H](c2ccc(Cl)c(Cl)c2)c2ccccc21,2-367,,broth dilution,Candida lusitaniae,,MIC90,8 µg/mL
CCCCN(Cc1cn(Cc2cccc(Cl)c2)nn1)CC(O)(Cn1cncn1)c1ccc(F)cc1F,,,,Candida kefyr,,MIC80,0.0156 µg/mL
C[C@@H](c1ncncc1F)[C@](O)(Cn1cncn1)c1ccc(F)cc1F,40 isolates,pH 7,broth dilution,Candida glabrata,,EC90,0.5 µg/mL
CCCCCCCCCCCCCCCCn1cc[n+](COCCCCCCOC[n+]2ccn(CCCCCCCCCCCCCCCC)c2)c1,ATCC 6258,,agar diffusion,Candida krusei,,MIC100,6 µM
CCCCN(Cc1cn(Cc2ccccc2[N+](=O)[O-])nn1)CC(O)(Cn1cncn1)c1ccc(F)cc1F,,,,Candida kefyr,,MIC80,16 µg/mL
Nc1[nH]c(=O)ncc1F,40 isolates,pH 7,broth dilution,Candida glabrata,,EC90,0.125 µg/mL
CC(=NNC(=O)c1snnc1C(F)(F)F)c1ccc(Br)cc1Br,NCIM 3462,,agar diffusion / agar,Candida rugosa,100 µg/mL,zone,0 mm
Cc1ccc(C)n1NC(=O)C1CC(=O)N(c2cccc(OC3=C(Oc4cccc(N5CC(C(=O)Nn6c(C)ccc6C)CC5=O)c4)C(=O)c4ccccc4C3=O)c2)C1,VCM Y-70,,,Candida tenuis,,MIC,15.6 µg/mL
C[C@H]1[C@H](O)[C@@H](C)/C=C/C=C/C=C/C=C/C=C/C=C/C=C/[C@H](O[C@@H]2O[C@H](C)[C@@H](O)[C@H](N)[C@@H]2O)C[C@@H]2O[C@](O)(C[C@@H](O)C[C@@H](O)CC[C@H](O)[C@@H](O)C[C@@H](O)CC(=O)O[C@H]1C)C[C@H](O)[C@H]2C(=O)O,UTHSC 11-586,,broth dilution,Candida lusitaniae,,MIC,1 µg/mL
O=C(O)c1ccc(C[C@H](C(=O)O)[C@@H](O)C(=O)O)cc1,CBS 7987,,,Candida pseudotropicalis,,MIC,>4 µg/mL
Cc1cc(C)n(C(=O)C2CC(=O)N(c3cccc(OC4=C(Oc5cccc(N6CC(C(=O)n7nc(C)cc7C)CC6=O)c5)C(=O)c5ccccc5C4=O)c3)C2)n1,VCM Y-70,,,Candida tenuis,,MIC,62.5 µg/mL

A second listing of 6 rows from above:

compound	strain	conditions	method	agent	dose	read-out	result
CCCCN(Cc1cn(Cc2ccc(Cl)cc2)nn1)CC(O)(Cn1cncn1)c1ccc(F)cc1F				Candida kefyr		MIC80	0.0039 µg/mL
CC(=NNC(=O)c1snnc1C(F)(F)F)c1ccc(Br)cc1Br	NCIM 3462		agar diffusion / agar	Candida rugosa	100 µg/mL	zone	0 mm
Nc1scc2c1c(=O)oc1ccccc12			broth dilution	Candida guilliermondii		MIC	64 µg/mL
CC(=O)CC(C)n1c2c(=O)c3ccccc3c(=O)c=2oc2ccc(Cl)cc21	VKM Y-70			Candida tenuis		MIC	125 µg/mL
CCCCN(Cc1cn(Cc2ccc(F)cc2)nn1)CC(O)(Cn1cncn1)c1ccc(F)cc1F				Candida kefyr		MIC80	0.625 µg/mL
C=CCc1ccc(OC)c(OC)c1	3220		turbidity	Candida tropicalis		MIC90	340 µg/mL